{"source": "paper PMC11604724", "about": "(MedComm, 2024)", "key": {"[1]": {"target": "spike of authentic SARS‐CoV‐2 (WT) on infected, fixed Vero E6 cells (SARS-CoV-2 WT (patient isolate), UniProt P0DTC2)", "assay": "ELISA", "details": "one partner purified"}, "[2]": {"target": "Horseradish peroxidase (HRP)‐labeled NTD protein (SARS-CoV-2, WT assumed, UniProt P0DTC2, horseradish peroxidase (HRP) label)", "assay": "ELISA", "details": "both partners purified"}}}
{"binder": "mAb 3711 (antibody, V domains shown) VH: EVQLVESGGGLVKPGRSLRLSCAASGFTFSDYYMSWIRQAPGKGLEWVSYISSSGSTIYYADSVRGRFTISRDNAKNSLYLQMNTLRAEDTAVYYCARGGWELRSLAGGYYGMDVWGQGTTVTVSS VL: DIVMTQTPFTLSASVGDRVTITCRASQGIRNDLGWYQQKPGKAPKCLIYAASSLLSGVPSRFSGSGSGTEFTLTISSLQPEDFATYYCLQHNSYPWTFGQGTKLEIK", "values": [{"measurement": "binding result", "setting": "[1]", "value": "binds"}]}
{"binder": "antibody 5–7 (antibody, V domains shown) VH: QVQLVQSGAEVKKPGASVKVSCKASGYTFTSYYMHWVRQAPGQGLEWMGVINPSGGSTSYAEKFRGRVTMTRDTSTSTVYMELSSLRSEDTAVYYCARDREPHSDSSGYWDSLKYYYYYALDVWGQGTTVTVSS VL: AIQLTQSPSSLSASVGDRVTITCRASQGISSYLAWYQQKPGKAPELLIYAASTLQSGVPSRFSGSGSGTDFTLTISSLQPEDFATYYCQQLNTYPFTFGPGTKVDIK", "values": [{"measurement": "binding result", "setting": "[1]", "value": "binds"}]}
{"binder": "antibody P008_056 (antibody, V domains shown) VH: EVQLVESGGGLVKPGGSLRLSCAASGFSFSSYSMNWVRQAPGKGLEWVSSISSNSNYIYYADSMKGRFTISRDNAKNSLYLQMNSLRAEDTAVYYCASNRSPYDSSNYYFDYWGQGTRVTISS VL: AIRMTQSPSSLSASVGDRVTITCQASQDISNYLNWYQQKPGKAPKLLIYDASNLETGVPSRFSGSGSGTDFTFTISSLQPEDIATYYCQHHDSLPLTFGGGTKVEIK", "values": [{"measurement": "binding result", "setting": "[2]", "value": "binds"}, {"measurement": "binding result", "setting": "[1]", "value": "binds"}]}
{"binder": "antibody DH1052 (antibody, V domains shown) VH: EVQLVQSGAEVKKPGATVKISCKVSGYTFTDYYMHWVQQAPGKGLEWMGLVDPEDGETIYAEKFQGRVTITADTSTDTAYMELSSLRSEDTAVYYCATSSGPSRLCGGGSCYHSFDYWGQGTLVTVSS VL: not shown", "values": [{"measurement": "binding result", "setting": "[1]", "value": "binds"}]}
